Human monoclonal antibodies against the spike receptor-binding domain (heavy:light variable regions). IC50 against pseudoviruses bearing the spike of naturally observed variants; lower = stronger; >10 µg/ml means not reached at the top dose. No active / inactive call. The stated detection limit is 0.0005 µg/ml; values near or below 0.001 µg/ml lie at the floor of the assay. A value given as a limit tells only on which side of the number the result lay.

Experiment in all cases: pseudovirus neutralization IC50; higher = weaker neutralization
The target of assay [1] is SARS-CoV-2 Omicron BA.1 spike pseudovirus. Here is the method:
(§1)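 Single-round VSV luciferase pseudovirus mixed with antibody dilutions for 1 h and put on Huh-7 cells for about a day; IC50 from the dose curve.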

The target of assay [2] is SARS-CoV-2 Omicron BA.2 spike pseudovirus. On the procedure: as §1
Assay [3] concerns the target SARS-CoV-2 Omicron BA.2.75 spike pseudovirus. Here is the method:
as §1

The target in assay [4] is SARS-CoV-2 Omicron BA.5 spike pseudovirus. Here is the method: as §1
Assay [5] concerns the target SARS-CoV-2 Omicron BQ.1.1 spike pseudovirus. On the procedure: as §1
Assay [6] addresses SARS-CoV-2 Omicron XBB spike pseudovirus. On the procedure:
as §1

Assay [7] has as its target SARS-CoV-2 early D614G spike pseudovirus. On the procedure: as §1

B1: BD-833 (protein)
chain 1: QVQLQESGPGLVQPSQALSLTCTVSGASISNHNYYWSWIRQHPGKGLEWIGFIYYGVNTNYSPSLKSRATISVDTSKNQFSLKLSSLTAADTAVYYCARWETYYPLDAFDIWGQGTMVTVSS
chain 2: QSALTQPASVSGSPGQSITISCTGTSSDVGGYNYVSWYQQHPGKAPKLVVFDVARRPSGVSNRFSGSKSGNTASLTISGLQAEDEADYFCSSYATSNTVLFGGGTKLTVL
In the case of B1, the “pseudovirus neutralization IC50” value in assay [1], in assay [2], in assay [3], in assay [4], in assay [5] and in assay [6] was over 10 µg/mL throughout. Also, the “pseudovirus neutralization IC50” value in assay [7] was 0.04 µg/mL.

B2: BD-614 (protein)
chain 1: QVQLVESGGGLVQPGGSLRLSCAASGLIVSSNYMSWVRQAPGEGLEWVSVIYSGGSTYYADSVKGRFTISRDTSKNTLYLQMNSLRAEDTAVYYCARARIYTYGPDYWGQGTLVTVSS
chain 2: not shown
Regarding B2, the “pseudovirus neutralization IC50” value in assay [1] was 0.0375 µg/mL; in assay [2] it was 0.0278 µg/mL; in assay [3], 3.07 µg/mL; in assay [4] it was 0.0312 µg/mL; in assay [5], 1.95 µg/mL; in assay [6], 4.43 µg/mL. Also, in assay [7], the “pseudovirus neutralization IC50” value stood at 0.0431 µg/mL.

B3: BD55-1779 (protein)
chain 1: EVQLLESGGGLIQPGGSLRLSCAASGFTFSSSAMSWVRQAPGKGLEWVSVIYDGESSIYYADSVKGRFTISRDNSKNTLDLQMNSLRVEDTALYYCAKRGIFCSGGSCSSVPFDAWGQGTLVTVSS
chain 2: DIVMTQTPLSLSVTPGQPASISCKSSQSLLHSDGRTYLYWYLQRPGQSPQLLMYEVSNRFSGVPPRFSGSGSGTDFTLKISRVEAEDVGVYYCMQSVHLFTFGPGTKVDIK
In the case of B3, the “pseudovirus neutralization IC50” value is 0.61 µg/mL in assay [1]; 0.0728 µg/mL in assay [2]; 0.372 µg/mL in assay [3]; over 10 µg/mL in assay [4]; over 10 µg/mL in assay [5]; over 10 µg/mL in assay [6]. Further, in assay [7], the “pseudovirus neutralization IC50” value was 0.00215 µg/mL.

B4: BD-835 (protein)
chain 1: QVQLVQSGAEVKKPGSSVKVSCKTSGDNFSRFAINWVRQAPGQGLEWMGRIIPLFGNANYAQKFQGRVSMTADKSTSTAYMDLSSLRSEDTAIYYCARSEFFSDSRGYFFDNWGQGTLVTVSS
chain 2: EIVLTQSPGTLSLSPGERATLSCRASQSLSSSYLAWYQQKPGQAPRLLIYGASIRATGIPDRFSGSGSGTDFTLTISRLEPEDFAVYYCQQYHGSPRTFGQGTKVEVK
As to B4, the “pseudovirus neutralization IC50” value in assay [1], in assay [2], in assay [3], in assay [4], in assay [5] and in assay [6] was over 10 µg/mL in each case. Moreover, the “pseudovirus neutralization IC50” value in assay [7] amounted to 0.005 µg/mL.

B5: BD-807 (protein)
chain 1: EVQLVESGGGLIQPGGSLRLSCAASGLIVSSNYMNWVRQAPGKGLEWVSTLYSGGSTFYTDSVKGRFTISRDNSKNTLYLQMNSLRAEDTAVYYCARDLGPFGMDVWGQGTSVTVSS
chain 2: DIQLTQSPSFLSASVGDRVTITCRASQGISNYLAWYQQKPGEAPKLLIYGASTLQSGVPSRFSGSGSGTEFTLTISSLQPEDFAIYYCQQLNSYHPWTFGHGTKVEIK
For B5, the “pseudovirus neutralization IC50” value in assay [1], in assay [2], in assay [3], in assay [4], in assay [5] and in assay [6] was over 10 µg/mL throughout. Besides, the “pseudovirus neutralization IC50” value in assay [7] was found to be 0.013 µg/mL.

B6: BD-819 (protein)
chain 1: QVQLQESGPGLVRPSQTLSLTCTVSGGSISSAGSHWTWIRQRPGKGLEWIGFIYYSGGTSYNPSLRSRLTISVDTSKNQFSLNLRSVTAADTAVYYCASSTSLTGWIDPWGQGTLVTVSS
chain 2: SYVLTQPPSVSVAPGKTARITCGGNDIGSKNVHWYQQKPGQAPVLVVFDDSDRPSGIPERFSGSNSGNTATLTISRVEAGDEGDYYCQVWDSNIDQYWVFGGGTKVTVL
Turning to B6, the “pseudovirus neutralization IC50” value in assay [1], in assay [2], in assay [3], in assay [4], in assay [5] and in assay [6] was over 10 µg/mL in each case. For the same molecule, the “pseudovirus neutralization IC50” value in assay [7] turned out to be 4.18 µg/mL.

B7: BD-899 (protein)
chain 1: QVQLQESGPGLVKPSQTLSLTCTVSGDSIRSGDYYWSWIRRPPGKDLEWIGYIYYNGNSYYNPSLRSRLTLSVDTSKNRFSLRLSSVTAADTAVYYCARSLWFGEFSDAFDVWGQGTLVTVSS
chain 2: QSVLTQPPSVSAAPGQRVTISCSGSNSNIGNNYGSWYQQVPGAAPKLLIYDINKRPSGIPDRFSGSKSGTSATLAITGLQIGDEADYYCASWDSSLSAVVFGGGTKVTVL
Take B7: the “pseudovirus neutralization IC50” value in assay [1], in assay [2], in assay [3], in assay [4], in assay [5] and in assay [6] was over 10 µg/mL throughout. The “pseudovirus neutralization IC50” value in assay [7] was found to be 0.052 µg/mL.

B8: BD-846 (protein)
chain 1: EVQLLQSGGGLVQPGGSLRLSCGASGITFSNHAMNWVRQAPGKGLEWVSIISGSGDNAYYSDSVKGRFTISRDNSKNTLYLQMNSLRVEDTAVYYCARDNRVSTYFTYFGAFDIWGQGTRVTVSS
chain 2: SYVLTQPPSVSVAPGQTARITCGGDNIGSKNVHWYQQKPGQAPILVVYDDTDRPSVIPERFSGSNSGNTATLTISRVEAGDEADYYCQVWDSDSDPPIGGGTKLTVL
Turning to B8, the “pseudovirus neutralization IC50” value in assay [1], in assay [2], in assay [3], in assay [4], in assay [5] and in assay [6] was over 10 µg/mL each time. Also, the “pseudovirus neutralization IC50” value in assay [7] was over 10 µg/mL.

B9: BD55-1962 (protein)
chain 1: QVQLVQSGAEVKKPGSSVKVSCTASGDSFSSYAITWVRQAPGQGLEWMGRIIPILGIANYAQKFQGRVTLTADKSAGTAYMELSSLRSDDTAVYYCASGYDFHFDYWGQGTLVTVYS
chain 2: QSALTQPASVSGSPGQSITISCTGTSSDVGDYKYVSWYQQHAGKAPKLMIHDVSKRPSGVSSRFSGSKSGNTASLTISGLQAEDEADYYCSSYTSSSSWVFGGGTKLTVL
As for B9, the “pseudovirus neutralization IC50” value in assay [1] is 1.2 µg/mL; in assay [2], 1.35 µg/mL; in assay [3], 1.79 µg/mL; in assay [4], 2.24 µg/mL; in assay [5], over 10 µg/mL; in assay [6] it was over 10 µg/mL. Besides, the “pseudovirus neutralization IC50” value in assay [7] was 0.0269 µg/mL.

B10: BD-815 (protein)
chain 1: EVQLVQSGPEVKKPGESLKISCKASGYSFISNWIGWVRQMPGKGLEWMGIIYPGDSDTRYSPSFQGQVTISADRSITTAYLQWSSLKASDTAIYYCARLGSSWYWVDYWGQGTLVTVSS
chain 2: SSELTQDPAVSVALGQTVRITCQGDSLRSYHASWYQQKPGQAPILVIYDKNNRPSGIPDRFSGSGSGNTASLTITGAQAEDEADYYCNSRDSSGDHLVFGTGTKVTVL
For the molecule B10, the “pseudovirus neutralization IC50” value in assay [1] turned out to be 0.838 µg/mL; in assay [2], 2.09 µg/mL; in assay [3] it was 3.49 µg/mL; in assay [4] it was 2.73 µg/mL; in assay [5], 1.95 µg/mL; in assay [6], 2.06 µg/mL. The “pseudovirus neutralization IC50” value in assay [7] was 0.26 µg/mL.

B11: BD55-1789 (protein)
chain 1: EVRLVESGGGLVQPGGSLRLSCSASGFTFSSYAMHWVRQAPGKGLEYVSRITDNGVYTYYADSVKGRFNISRDNSKNTLYLQMSSLRPEDTALYYCVKEGRYDFRSGYFEIDPWGQGTLVTVPS
chain 2: NFMLTQPHSVSESPGKTVTISCTRNGGSIASNYVHWYQQRPGSSPRTMIYEDNQRPSGVPDRFSGSIDISSNSASLTISGLKTEDEADYYCQSFDNNNHWVFGGGTKLTVL
On to B11, for which the “pseudovirus neutralization IC50” value in assay [1], in assay [2], in assay [3], in assay [4], in assay [5] and in assay [6] was over 10 µg/mL each time. Besides, the “pseudovirus neutralization IC50” value in assay [7] was determined as 0.249 µg/mL.

B12: BD-821 (protein)
chain 1: ELQLVQSGAEVKKPGESLKISCKYSGNISPNFWIGWVRQMAGKGLEWMGIIYPDDSDSRYSPSFQGQVIISADKSITTALLHWSSLKVSDTAKYYCVYGSGSPSNWFHPWGQGTLVTVSS
chain 2: EVVMTQSPATLSVSPGERATLSCRASQSVRYNLAWYQQKPGQAPRLLIYDASTRATGIPGRFSGSGSGTEFTLTISSLQSEDFAVYYCQQYDNWPPWTFGQGTKVEIK
Regarding B12, the “pseudovirus neutralization IC50” value in assay [1], in assay [2], in assay [3], in assay [4], in assay [5] and in assay [6] was over 10 µg/mL throughout. For the same molecule, the “pseudovirus neutralization IC50” value in assay [7] was over 10 µg/mL.

B13: BD-837 (protein)
chain 1: QMQLVQSGPEVKKPGTSVKISCKASGFTFDISAVQWVRQARGQRLEWMGWVVVGSGNTDYAQKFQERVTITRDMSTNTAYMELSSLRVDDTAAYFCAAPHCNKTNCYDGFDIWGQGTVVTVSP
chain 2: EFVLTQSPGTLSLSPGERPTLSCRASQNIRSSYLAWYQQKPGQAPRLLIYSASRRATGIPDRFSGSGSGTDFTLTISRLDPEDFAVYYCQQYGSSPWTFGQGTKVEV
As for B13, the “pseudovirus neutralization IC50” value in assay [1] is 0.00082 µg/mL; in assay [2], 0.00083 µg/mL; in assay [3], 0.00031 µg/mL; in assay [4] it was 0.00954 µg/mL; in assay [5] it was 1.04 µg/mL; in assay [6], over 10 µg/mL. For the same molecule, the “pseudovirus neutralization IC50” value in assay [7] was 0.017 µg/mL.

Source of the values: the supplement of paper PMC9931576.
